Data as given in PubChem BioAssay AID504761 (Drosophila RNAi Screening Center, 2011).
Test: 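Genome-wide fly cell screen for genes dengue virus requires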 (primary screen). Cell system: D.Mel-2 cells from Drosophila. Reagent: long dsRNA against Drosophila genes. Challenge: infection with dengue virus type 2; dose and infection time not stated. Measurement: 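Cells stained for dengue envelope protein and imaged; percent of infected cells per well on duplicate plates, ranked by infection, with stained nuclei counted for cell number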. Reading the numbers: infection score: higher = more virus-infected cells; cell count: higher = more cells in the well. Hit rule: 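Low infection ranks in the two replicates (chance level up to 0.065) followed by a retest with a 1.5-fold or larger significant decrease, p below 0.05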. Calls: active = confirmed: knock-down lowers infection; inactive = not picked or not confirmed.
In all, the deposit lists about 22,000 reagents; below is an unselected part of those with a known target gene and a result. Of all reagents, 116 (0.52%) are marked active. 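Calls depend on retest data that are not deposited; infection was ranked per plate without normalising between plates; the unit of the infection score is not given.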 Raw values vary from plate to plate and are shown uncorrected. Entries without a mark were called inactive. A plus sign joins genes that one reagent is predicted to hit. Not given: the amount of reagent, the time to read-out.

infection score, replicate 1 | infection score, replicate 2 | cell count, replicate 1 | cell count, replicate 2 | target | dsRNA
8.03 | 8.31 | 6715 | 6465 | Alg2 | DRSC08298
4.99 | 9.56 | 6407 | 2186 | lectin-37Da | DRSC03278
2.88 | 3.68 | 6984 | 6705 | lectin-37Da | DRSC22729
10.9 | 17.7 | 1854 | 1961 | Srlp | DRSC15890
4.88 | 10.4 | 6513 | 5085 | CG11498 | DRSC14315
4.43 | 6.61 | 6323 | 6185 | CG7646 | DRSC11232
3.12 | 1.89 | 6145 | 6200 | CG8509 | DRSC20109
3.58 | 11.6 | 6281 | 6319 | Con | DRSC08652
27.1 | 16.2 | 5550 | 6963 | Arp53D | DRSC05923
17.2 | 21.7 | 5877 | 4471 | CG16825 | DRSC02526
11.4 | 6.2 | 6724 | 6439 | p130CAS + Dic61B | DRSC08588
5.03 | 14.2 | 6240 | 6051 | mRpL18 | DRSC06142
3.71 | 3.51 | 6504 | 6927 | Pgi | DRSC07507
4.9 | 2.46 | 1103 | 1015 | Prosalpha5 | DRSC07514
1.89 | 18.8 | 6680 | 5150 | Pph13 | DRSC23162
– | 4.53 | 415 | 707 | Pph13 | DRSC29483
2.17 | 2.21 | 6172 | 5970 | jp | DRSC02213
1.55 | 1.65 | 6579 | 6612 | CG17717 | DRSC18130
4.33 | 10.7 | 6115 | 6081 | WASp | DRSC15032
11.4 | 18.4 | 5868 | 5946 | WASp | DRSC26170
22.2 | 32.8 | 4590 | 5575 | CG3927 | DRSC04433
2.89 | 2.57 | 6462 | 6308 | CG3927 | DRSC22813
3.43 | 14 | 5706 | 5961 | CG3984 | DRSC15530
1.31 | 2.03 | 6011 | 5626 | Cht12 | DRSC03844
4.46 | 1.95 | 5648 | 5382 | pen-2 | DRSC05722
4.72 | 12.7 | 6310 | 6528 | Saysd1 | DRSC14664
12.9 | 0.72 | 6264 | 6400 | CG18808 | DRSC08539
9.77 | – | 4361 | 226 | mRpS18C | DRSC16538
5.26 | 7.77 | 6448 | 6719 | mRpS18C | DRSC27054
6.65 | 4.9 | 7048 | 6993 | CG13501 | DRSC04146
3.38 | 6.55 | 5356 | 5051 | nop5 | DRSC03582
13.1 | 13.4 | 6196 | 5887 | CG11362 | DRSC04106
4.89 | 1.27 | 6160 | 6316 | CG11362 | DRSC22032
4.64 | 6.39 | 6791 | 6216 | CG11362 | DRSC27136
6.04 | 0.76 | 3593 | 6686 | Trmt61 | DRSC14888

Laid out differently: entries from further up
"infection score, replicate 1","infection score, replicate 2","cell count, replicate 1","cell count, replicate 2",target,dsRNA
4.99,9.56,6407,2186,lectin-37Da,DRSC03278
2.88,3.68,6984,6705,lectin-37Da,DRSC22729
10.9,17.7,1854,1961,Srlp,DRSC15890
4.88,10.4,6513,5085,CG11498,DRSC14315
4.43,6.61,6323,6185,CG7646,DRSC11232
3.12,1.89,6145,6200,CG8509,DRSC20109
3.58,11.6,6281,6319,Con,DRSC08652
27.1,16.2,5550,6963,Arp53D,DRSC05923

Further results follow:
infection score, replicate 1 | infection score, replicate 2 | cell count, replicate 1 | cell count, replicate 2 | target | dsRNA
6.34 | 7.68 | 5488 | 4026 | Lgr3 | DRSC15704
9.79 | 3.88 | 5630 | 954 | Lgr3 | DRSC15706
15.6 | 10.3 | 5873 | 2832 | Grl43a | DRSC06383
10.9 | 25.9 | 6013 | 5518 | CG7953 | DRSC01902
3.26 | 0.94 | 6234 | 6093 | Gnmt | DRSC15987
2.67 | 0.92 | 6664 | 6704 | CG4017 | DRSC02733
4.08 | 1.5 | 5903 | 5716 | CG14325 | DRSC14804
7.7 | 5.77 | 6068 | 5299 | CG31077 | DRSC13805
3.73 | 5.14 | 6329 | 6523 | CG31077 | DRSC23916
9.12 | 4.41 | 5211 | 4625 | east | DRSC18770
3.11 | 3.53 | 5731 | 5578 | east | DRSC23626
2.19 | 5.49 | 6850 | 6760 | insc | DRSC04695
1.23 | 7.87 | 405 | 5593 | KaiR1D | DRSC15516
1.23 | 4.05 | 6004 | 6269 | IleRS-m | DRSC10506
14.5 | 20.3 | 4545 | 5756 | tud | DRSC04719
9.05 | 17.3 | 995 | 1006 | dup | DRSC07088
2.58 | 18.1 | 6115 | 5854 | LKRSDH | DRSC03015
9.94 | 7.88 | 6411 | 6041 | LKRSDH | DRSC24572
19.1 | 12.2 | 6256 | 6829 | fra | DRSC07621
1.04 | 1.92 | 6035 | 5949 | Eig71Eg | DRSC11154
1.05 | 0.82 | 5719 | 6597 | CG31808 | DRSC22962
11.3 | 21.7 | 5320 | 5455 | CG31808 | DRSC29167
3.49 | 7.87 | 6881 | 6775 | CG11629 | DRSC03695
